Results published in patent US20190015400A1, “Antifungal Compositions” (priority 2017, published 2019).

Test system: 13 Candida spp. strains (strains A-M)
Assay: MIC and checkerboard assay, azoles + antihistamines, panel
Type: cell-based
Settings: total over 7 azoles and 13 strains; for cases of SYN: SYN = FICI≤0.5; for cases of pSYN: pSYN = 0.5<FICI≤0.75
Protocol: Determination of minimum inhibitory concentration (MIC) values. MIC values were recorded for all antifungals and antihistamines in order to determine the concentration range of compounds to be used in the checkerboard assays.
The MIC assays were done using the broth microdilution method as described in CLSI document M27-A3 with minor modifications. Yeast cultures were started by picking a colony from a PDA plate stored at 4° C. The colonies were grown in YEPD medium overnight at 35° C. with shaking at 200 rpm. In a 96-well plate compounds were diluted lengthwise along the plate in serial 2-fold dilutions in the RPMI 1640 medium. The yeast cultures were diluted in RPMI 1640 medium to an OD600 within the range of 0.12 and 0.15 (˜1×10^6 cells/mL). The fungal cells were further diluted by taking 25 μL of fungal cells and adding them to 10 mL of RPMI 1640 medium before adding 100 μL to plate (200 μL total volume). The plates were incubated at 35° C. for 48 h. Visual inspection of the wells for no growth was used to determine the MIC. All compounds were tested in duplicate (TABLES 6 and 7).
Checkerboard assays were done as previously described to determine the fractional inhibitory concentration index (FICI). 2-fold dilutions of the azole drug were made in RPMI 1640 medium lengthwise along the plate. For the antihistamine, 2-fold serial dilutions were made in sterile tubes with RPMI 1640 medium, then aliquoted into the plate. […] The maximal amount was used in the checkerboard assays if complete inhibition was not observed in the MIC assays. Cultures were started by picking a colony from a plate and growing in YEPD medium overnight at 35° C. with shaking at 200 rpm. Cultures were diluted in RPMI 1640 medium to an OD600 between 0.12 and 0.15 (˜1×10^6 cells/mL). Cells were then further diluted by taking 25 μL of cell suspension and adding to 10 mL of RPMI 1640 medium. After the drugs were added to the plate with 100 μL of medium, 100 μL of fungal cells were added. Plates were incubated at 35° C. for 48 h and visual inspection was used to determine wells with no growth. All experiments were carried out in duplicate. The FICI was calculated based on the formula below. The combinational effect of the 2 tested compounds were considered synergistic (SYN) if FICI≤0.5, additive (ADD) if 0.5<FICI≤4, and antagonistic if FICI>4 (TABLES 6-9).

CC(C)(C)c1ccc(C(=O)CCCN2CCC(OC(c3ccccc3)c3ccccc3)CC2)cc1 [EBA, ebastine]
cases of SYN: 14
cases of pSYN: 9

CC(C)(C)c1ccc(C(O)CCCN2CCC(C(O)(c3ccccc3)c3ccccc3)CC2)cc1 (stereo not shown) [TERF, terfenadine]
cases of SYN: 41
cases of pSYN: 22
